Screening data, single-dose tests

Mtb glucose medium: 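Growth of Mycobacterium tuberculosis over 3 days (7H9 medium with glucose and tyloxapol); the read-out is not stated. Compounds at 500 µM. Direction is inferred from retests: higher values go with more growth inhibition. Size under these conditions: about 18,000 compounds, about 1,400 of them at 50% or above in at least one test.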
Mtb cholesterol medium: 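Phenotypic screen: M. tuberculosis growth, cholesterol and DPPC medium, 4 days; the read-out is not stated. Tested at 500 µM. The record gives no direction; compounds that gave an IC50 in retests scored well above the rest, so higher reads as more growth inhibition. About 18,000 compounds were tested under these conditions; 5% (about 900) showed 50% or more at least once.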

Results are given as percent effect. How 0% and 100% were set is not recorded. Most values in the screen are low, and negative values occur. This is part of a subset picked to be rich in strong results. A dash means the value is not listed here; it may have been measured.

Compound,Mtb glucose medium,Mtb cholesterol medium
NCC(=O)N1CCCC(COc2ccc(F)cc2)C1 (stereo not given),53.57%,21.21%
COc1ccncc1NCc1cccc(C#N)c1,23.97%,-
Cc1cccn(CC(=O)NCc2cccs2)c1=O,2.294%,-
NCCC1(O)CNC1,-21.56%,-
CC(C)CC(=O)NCC(O)c1ccccc1F (stereo not given),2.597%,-
Cc1nnc(SCCCNC(=O)c2csnn2)s1,1.969%,-
Cc1nc2ccc(N)cn2n1,-,-234.3%
CCNC1CCCc2cccnc21 (stereo not given),-1.045%,-
Cc1cc(C(=O)N2CCCCC2)c2c(C)nn(C)c2n1,-,-23.58%
CCOC(C)c1nc(CNC)cs1 (stereo not given),-,15.81%
CN(C)S(=O)(=O)NC1CCCOc2c(Cl)cccc21 (stereo not given),55.58%,20.97%
CC(C)n1ccnc1CN1CCCC2(C1)OCCO2,10.07%,-
Nc1ccc(CNc2nc(C3CC3)ns2)cn1,60.16%,-
O=C(Nc1cc[nH]n1)c1csc(I)c1,79.53%,79.03%
Cc1ccc(NC(=O)NC2CCCS(=O)(=O)C2)s1 (stereo not given),1.514%,-
Cc1cc(NC(=O)CSCC(=O)OC2CCOC2)no1 (stereo not given),2.951%,-
N#CC(CO)Cc1ccco1 (stereo not given),-,5.884%
COc1ccc(Cl)cc1S(=O)(=O)n1cncn1,-1.443%,-
CN(C(=O)c1ccncc1)c1ncccc1Br,0.8151%,-
Cc1cccc2nc(CN(C)C(=O)CN(C)C)[nH]c12,-,-5.608%
NCC(C(=O)N1CCOCC1)c1ccccc1 (stereo not given),-8.992%,-6.43%
COCC(=O)N1CCC2(CC1)OCCO2,50.57%,-
Cc1nc(CN2CCCNCC2)oc1C,0.9507%,-
CCCNC(=O)CNC(=O)c1ccc(O)nc1,-,10.59%
NC(=O)C(c1ccc(Cl)cc1)N1CCNCC1 (stereo not given),-5.591%,-
O=C(Cc1ccccc1F)Nc1nnc2n1CCCC2,5.812%,-
CCc1[nH]c(C(C)(N)CC)nc(=O)c1C (stereo not given),-,6.136%
CCNc1nnc(SCc2ncccc2C)s1,70.45%,74.09%
Nc1n[nH]c(SCC(=O)N2CCc3sccc3C2)n1,23.58%,-
CCCN1CCC(NCC(O)c2ccco2)CC1 (stereo not given),-7.058%,-
CCC1CN(C(=O)c2ccc3ccccc3n2)CCO1 (stereo not given),72.88%,75.3%
NCc1cc(Oc2cccc(F)c2)ccn1,59.25%,77.72%
CC(C)c1ncc(C(=O)N2C[C@@H]3CCCN[C@@H]3C2)cn1,12.72%,-
CCCC(NC(C)=O)C(=O)N(C)Cc1cc[nH]n1 (stereo not given),-,0.05683%
COc1cc(C(=O)NCCC(C)C)cc(OC)c1OC,6.718%,-2.821%
CCN(CCS(=O)(=O)c1ccccc1)CC(C)C#N (stereo not given),-6.662%,3.351%
CC(C)CC(CCO)CNC(=O)N1CCSCC1 (stereo not given),-,22.73%
Cc1ccc(C(=O)N2CCCNCC2)cc1,1.861%,-
CSC(C)C(=O)N(CCC(N)=O)Cc1ccccc1 (stereo not given),17.23%,-
CN1CCC(=O)CC1c1ccc(Br)cc1 (stereo not given),-4.629%,-
Cc1ccnc(NCCn2ccnc2-c2ncc[nH]2)c1,31.21%,-
NCCc1nc(C2CC2)cs1,57.05%,71.4%
Cc1ccn(Cc2cccnc2)c(=O)c1,-,-5.785%
CCCn1ccnc1CNC(=O)[C@H]1CCC[C@@H](O)C1,-15.11%,-
Cc1cc(C(=O)N2CCN(CC(C)O)CC2)on1 (stereo not given),-,-12.55%
Cc1cccc(C(=O)NCC(C)N2CCCC2)n1 (stereo not given),50.79%,14.26%
Cc1ncsc1C(=O)N(C)c1ncccc1C#N,-5.807%,-
Cc1cnc(C(=O)NCCSCc2ccco2)cn1,55.05%,-
Cc1cccc(CNC(=O)N2CCOC(C)C2)n1 (stereo not given),1.583%,-
COCCN1CCN(c2ccccc2C#N)CC1,25.2%,-
CCOCCOC(=O)C1COCCN1CC (stereo not given),-6.258%,-
Cc1c[nH]c(CN(C)c2cc(C3CC(O)C3)ncn2)n1 (stereo not given),13.5%,-
NS(=O)(=O)N1CCN(Cc2cccc3nonc23)CC1,4.054%,-
Cc1nc(CN(C)C(=O)NCc2ccccc2)no1,-,21.17%
O=C(CC1CCCC1)Nc1ccc2c(c1)NC(=O)CO2,-,-14.47%
CCC(=O)NC1=NCCS1,-,-14.82%
Cc1n[nH]c(C)c1NC(=O)CNC(C)C1CCOCC1 (stereo not given),-2.578%,-
CC(C)(C)OC(=O)c1ncccc1N,-,63.04%
COc1ccc2ccccc2c1CN,-1.765%,-
CN(CCCNC(=O)c1cnccn1)CC(F)(F)F,-,26.61%
CN(C)c1cc(CNC(=O)c2cnn(C)c2)ccn1,17.8%,-
CNC(=O)CN1CCC(OCCCc2ccccc2)C1 (stereo not given),60.02%,44.61%
CCN1CCC(CC(=O)N(C)Cc2noc(C)n2)CC1,-10.81%,-
CCNC(=O)CN(c1ccc(Cl)cc1C)S(C)(=O)=O,-,8.604%
COc1ccc(OCC(=O)N2CCN(C)CC2)cc1,-,1.789%
C=C(C)CNC(=O)Nc1cc(F)cc(OC)c1,45.71%,-0.955%
CCC(=O)N1CCCC(NS(C)(=O)=O)C1 (stereo not given),-,3.302%
COc1ccc(CN2CC(N3CCOCC3)C2)cn1,-,-1.814%
CSCC(=O)NCc1ccc(CN2CCCC2)cc1,15.35%,-

The first 7 entries again:

- NCC(=O)N1CCCC(COc2ccc(F)cc2)C1 (stereo not given) | Mtb glucose medium: 53.57%; Mtb cholesterol medium: 21.21%
- COc1ccncc1NCc1cccc(C#N)c1 | Mtb glucose medium: 23.97%
- Cc1cccn(CC(=O)NCc2cccs2)c1=O | Mtb glucose medium: 2.294%
- NCCC1(O)CNC1 | Mtb glucose medium: -21.56%
- CC(C)CC(=O)NCC(O)c1ccccc1F (stereo not given) | Mtb glucose medium: 2.597%
- Cc1nnc(SCCCNC(=O)c2csnn2)s1 | Mtb glucose medium: 1.969%
- Cc1nc2ccc(N)cn2n1 | Mtb cholesterol medium: -234.3%

Source: ChEMBL document CHEMBL3988442, “University of Dundee, Small-Polar-MMV Screening Library” (2021).